Measured values as given in PMC3630091, “A Mechanistic Paradigm for Broad-Spectrum Antivirals that Target Virus-Cell Fusion” (PLoS Pathogens, 2013).

Tested on: NDV
Type: cell-based, Newcastle disease virus
Conditions: ratio CC50 / IC50

SMILES	TI (NDV)
CCN1C(=S)O/C(=C\c2ccc(-c3ccc(N(C)C)cc3)o2)C1=S [JL118, (Z)-5-((5-(4-(dimethylamino)phenyl)furan-2-yl)methylene)-3-ethyloxazolidine-2,4-dithione]	17,643
CCN1C(=S)O/C(=C\c2ccc(-c3ccc(OC)cc3OC)o2)C1=S [JL109, (Z)-5-((5-(2,4-dimethoxyphenyl)furan-2-yl)methylene)-3-ethyloxazolidine-2,4-dithione]	2,239
CCN1C(=S)O/C(=C\c2ccc(-c3ccccc3OC)o2)C1=S [JL103, (Z) 3-Ethyl-5-[5-(2-methoxyphenyl)-furan-2-ylmethylene]oxazolid-ine-2,4-dithione]	1,604
CCN1C(=S)O/C(=C\c2ccc(-c3c(OC)cc(OC)cc3OC)o2)C1=S [JL122, (Z)-3-ethyl-5-((5-(2,4,6-trimethoxyphenyl)furan-2-yl)methylene)oxazolidine-2,4-dithione]	11,422
C=CCN1C(=O)/C(=C/c2ccc(-c3ccccc3)o2)SC1=S [LJ001, (Z)-3-allyl-5-((5-phenylfuran-2-yl)methylene)-2-thioxothiazolidin-4-one]	66
